Measurements as given in patent US12514943B2 (priority 2020, dated 2026).

Experiment: Effect of limiting decrease in durability of synthetic adhesives, overall determination
Details: 40° C., 16 hours

CC(=O)O [acetic acid]
limiting a decrease in durability of synthetic adhesives (in words): had no action of limiting a decrease in durability

NCC(=O)O [glycine]
limiting a decrease in durability of synthetic adhesives (in words): limits a decrease in durability

Some compounds share one wording; it may come from a single statement.
